Laboratory results reported in PMC10296771, “Glycosylation of H4 influenza strains with pandemic potential and susceptibilities to lung surfactant SP-D” (2023).
pKd: −log10 of the molar value.

Biological target: Dodecameric human SP-D neck and carbohydrate domains with [change] and [change] mutations, biotinylated (human)
Assay: SPR

Hemagglutinin (H4) of A/blue-winged teal/Illinois/10OS1563/2010 (H4N6), on whole virus (natural protein)
pKd: 7.09

Hemagglutinin (H4) of A/blue-winged teal/Wisconsin/402/1983 (H4N6), on whole virus (natural protein)
pKd: 7.00

Hemagglutinin (H4) of A/duck/Czechoslovakia/1956 (H4N6), on whole virus (from UniProt P19696) (natural protein)
pKd: 6.76

Hemagglutinin (H3) of A/pintail/339/1987 (H3N8), on whole virus (natural protein)
pKd: 7.28

Hemagglutinin (H4) of A/swine/Missouri/A01727926/2015 (H4N6), on whole virus (natural protein)
pKd: 6.77
